Laboratory results reported in US20030073218A1, “High affinity inhibitors for target validation and uses thereof” (Princeton University, priority 1999, published 2003).

Key:
I338G v-Src = biological target: T1, I338G v-Src (Rous sarcoma virus subgroup A, UniProt P00524, DEL77-225/I338G); experiment: biochemical
T1 construct: screened against the catalytic domain of the target kinase, I338G v-Src; made in house; host or cells: E. coli DH5a, pGEX-KT

WT v-Src = biological target: T2, WT v-Src (Rous sarcoma virus subgroup A, UniProt P00524, DEL77-225); experiment: biochemical
T2 construct: mutant of the v-Src catalytic domain, (the XD4 fragment) were made as glutathione S-transferase (GST) fusion proteins; made in house; host or cells: E. coli (DH5a), pGEX-KT

SMILES: CC(C)(C)n1nc(-c2ccc3ccccc3c2)c2c(N)ncnc21 [Compound 6b, 4-amino-1-(tert-butyl)-3-(2′-naphthyl)pyrazolo[3,4-d]pyrimidine]
- IC50 (I338G v-Src): 1.5 nM
- IC50 (WT v-Src): 1000 nM
